Results deposited as PubChem BioAssay AID1259414 (Drosophila RNAi Screening Center, 2018)

Purpose: 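Genome-wide screen for host control of endosymbiont load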 (primary screen)
System: Drosophila JW18 cells infected with Wolbachia
Knock-down reagent: long dsRNA against Drosophila genes, 0.25 µg dsRNA per well of a 384-well plate
Time to read-out: 5 days
Treatment: cells persistently infected with Wolbachia before knock-down; no added drug
Detection: 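Imaged fluorescence in situ signal for Wolbachia 23S rRNA per DAPI-counted host cell, given as a robust z-score within each plate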
Scale: Wolbachia per cell robust z: higher = more Wolbachia per host cell than the plate typical
Hit rule: 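Active if absolute robust z reaches 1.5 in two or more of three replicates, leaving out multi- or no-target dsRNAs, genes unexpressed in JW18 and A1 wells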
In all, the deposit lists about 24,000 reagents; below is an unselected part of those with a known target gene and a result. In the full data, about 1,210 (5%) got an active call. 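Inactive calls also include excluded dsRNAs with several or no targets, genes unexpressed in JW18, and well A1, regardless of score.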 A number with no mark means an inactive call.

Ugt303A1 [DRSC15641] | Wolbachia per cell robust z, rep 1 = -0.0774; Wolbachia per cell robust z, rep 2 = 0.65; Wolbachia per cell robust z, rep 3 = 0.16
CG34260 [DRSC41339] | Wolbachia per cell robust z, rep 1 = -0.55; Wolbachia per cell robust z, rep 2 = -0.683; Wolbachia per cell robust z, rep 3 = -0.254
Mpi [DRSC16417] | Wolbachia per cell robust z, rep 1 = 0.382; Wolbachia per cell robust z, rep 2 = -0.453; Wolbachia per cell robust z, rep 3 = -0.433
Diedel [DRSC14317] | Wolbachia per cell robust z, rep 1 = 0.428; Wolbachia per cell robust z, rep 2 = -3.46; Wolbachia per cell robust z, rep 3 = 1.24
Diedel [DRSC27523] | Wolbachia per cell robust z, rep 1 = -0.636; Wolbachia per cell robust z, rep 2 = 1.26; Wolbachia per cell robust z, rep 3 = 1.1
CG13847 [DRSC23172] | Wolbachia per cell robust z, rep 1 = 0.161; Wolbachia per cell robust z, rep 2 = -0.191; Wolbachia per cell robust z, rep 3 = -0.251
Top3beta [DRSC18724] | Wolbachia per cell robust z, rep 1 = -0.0151; Wolbachia per cell robust z, rep 2 = -1.85; Wolbachia per cell robust z, rep 3 = 0.209

Part of the list above in another layout.
target,amplicon,"Wolbachia per cell robust z, rep 1","Wolbachia per cell robust z, rep 2","Wolbachia per cell robust z, rep 3"
Diedel,DRSC27523,-0.636,1.26,1.1
CG13847,DRSC23172,0.161,-0.191,-0.251

The list goes on:
CG15117 [DRSC06539] | Wolbachia per cell robust z, rep 1 = -0.198; Wolbachia per cell robust z, rep 2 = 0.295; Wolbachia per cell robust z, rep 3 = -1.74
CG15117 [DRSC25471] | Wolbachia per cell robust z, rep 1 = 0.273; Wolbachia per cell robust z, rep 2 = 0.547; Wolbachia per cell robust z, rep 3 = 0.243
CG7135 [DRSC20026] | Wolbachia per cell robust z, rep 1 = -2.09; Wolbachia per cell robust z, rep 2 = -0.983; Wolbachia per cell robust z, rep 3 = -0.346
CG7135 [DRSC29942] | Wolbachia per cell robust z, rep 1 = -1.43; Wolbachia per cell robust z, rep 2 = -1.55; Wolbachia per cell robust z, rep 3 = -0.476
Sptr [DRSC18719] | Wolbachia per cell robust z, rep 1 = 1.27; Wolbachia per cell robust z, rep 2 = -4.82; Wolbachia per cell robust z, rep 3 = 1.78
